Measured values from several laboratories, pooled; numbers as filed in NIAID ChemDB.

Shared fields: enzyme or target tests

Percent inhibition refers to the dose given; in toxicity tests it is the harm to the cells. ICn: concentration for n% inhibition. An empty or dashed field is not shown. Rows are shuffled and stem from different studies.

{"SMILES": "O=P(O)(O)C(Cl)(Cl)P(=O)(O)O", "protein": "DNA polymerase", "read-out": "IC50", "organism": "Herpes simplex virus 2", "value": ">100 µM"}
{"SMILES": "CC(=O)NC[C@H]1O[C@@H](n2cc(C)c(=O)[nH]c2=O)C[C@@H]1O", "protein": "Thymidine kinase", "read-out": "IC50", "organism": "Herpes simplex virus 1", "value": "2.9 µM"}
{"SMILES": "O=P(O)(O)OP(=O)(O)O", "protein": "DNA polymerase", "read-out": "IC50", "organism": "Herpes simplex virus 1", "value": ">500 µM"}
{"SMILES": "CC(C)C(=O)NC[C@H]1O[C@@H](n2cc(I)c(=O)[nH]c2=O)C[C@@H]1O", "protein": "Thymidine kinase", "read-out": "IC50", "organism": "Herpes simplex virus 1", "value": "0.19 µM"}
{"SMILES": "O=C(O)C(Cl)(Cl)P(=O)(O)O", "protein": "DNA polymerase", "read-out": "IC50", "organism": "Herpes simplex virus 2", "value": ">100 µM"}
{"SMILES": "CC(C(=O)O)P(=O)(O)O", "protein": "DNA polymerase", "read-out": "IC50", "organism": "Herpes simplex virus 2", "value": "550 µM"}
{"SMILES": "COc1ccc(O)c2ccccc12", "protein": "Protease", "read-out": "IC50", "organism": "Herpes simplex virus 1", "value": ">100 µM"}
{"SMILES": "CCCCCCCCCC(C(=O)O)P(=O)(O)O", "protein": "DNA polymerase", "read-out": "IC50", "organism": "Herpes simplex virus 1", "value": "10 µM"}
{"SMILES": "O=C(O)C(F)P(=O)(O)O", "tested at": "100 µM", "protein": "DNA polymerase", "read-out": "inhibition", "organism": "Herpes simplex virus 2", "value": "100%"}
{"SMILES": "CCCC(C(=O)O)P(=O)(O)O", "protein": "DNA polymerase", "read-out": "IC50", "organism": "Herpes simplex virus 2", "value": "160 µM"}
{"SMILES": "CC(=O)NC[C@H]1O[C@@H](n2ccc(=O)[nH]c2=O)C[C@@H]1OC(C)=O", "protein": "Thymidine kinase", "read-out": "IC50", "organism": "Herpes simplex virus 1", "value": "5 µM"}
{"SMILES": "Oc1ccc2ccc(O)cc2c1", "protein": "Protease", "read-out": "IC50", "organism": "Herpes simplex virus 1", "value": ">100 µM"}
{"SMILES": "CC(C)C(=O)NC[C@H]1O[C@@H](n2cc(I)c(=O)[nH]c2=O)C[C@@H]1OC(=O)C(C)C", "protein": "Thymidine kinase", "read-out": "IC50", "organism": "Herpes simplex virus 1", "value": "0.36 µM"}
{"SMILES": "O=C(O)C(Cl)P(=O)(O)O", "protein": "DNA polymerase", "read-out": "IC50", "organism": "Herpes simplex virus 1", "value": "3.2 µM"}
{"SMILES": "CCC(=O)NC[C@H]1O[C@@H](n2cc(I)c(=O)[nH]c2=O)C[C@@H]1O", "protein": "Thymidine kinase", "read-out": "IC50", "organism": "Herpes simplex virus 1", "value": "0.41 µM"}
{"SMILES": "O=P(O)(O)C(Cl)P(=O)(O)O", "protein": "DNA polymerase", "read-out": "IC50", "organism": "Herpes simplex virus 1", "value": ">100 µM"}
{"SMILES": "COc1ccc(OC)c2ccccc12", "protein": "Protease", "read-out": "IC50", "organism": "Herpes simplex virus 1", "value": ">100 µM"}
{"SMILES": "O=C(O)C(Cl)(Br)P(=O)(O)O", "protein": "DNA polymerase", "read-out": "IC50", "organism": "Herpes simplex virus 2", "value": ">100 µM"}
{"SMILES": "O=P(O)(O)C(O)P(=O)(O)O", "protein": "DNA polymerase", "read-out": "IC50", "organism": "Herpes simplex virus 2", "value": "260 µM"}
{"SMILES": "O=C(O)C(Br)P(=O)(O)O", "tested at": "100 µM", "protein": "DNA polymerase", "read-out": "inhibition", "organism": "Herpes simplex virus 2", "value": "88%"}
{"SMILES": "CC(C)CC(=O)NC[C@H]1O[C@@H](n2cc(I)c(=O)[nH]c2=O)C[C@@H]1OC(=O)CC(C)C", "protein": "Thymidine kinase", "read-out": "IC50", "organism": "Herpes simplex virus 1", "value": "0.23 µM"}

The first 2 rows once more:

SMILES	tested at	protein	read-out	organism	value
O=P(O)(O)C(Cl)(Cl)P(=O)(O)O	-	DNA polymerase	IC50	Herpes simplex virus 2	>100 µM
CC(=O)NC[C@H]1O[C@@H](n2cc(C)c(=O)[nH]c2=O)C[C@@H]1O	-	Thymidine kinase	IC50	Herpes simplex virus 1	2.9 µM